Measured values from several laboratories, pooled; numbers as filed in NIAID ChemDB.

Common to all: growth or infection tests; species: HIV-1; measure: EC50

Neighbouring rows are from separate reports. Blank or dashed fields: not listed here. ECn is the concentration giving n% inhibition of infection, replication or growth. Two numbers with a dash give a range or band.

SMILES,strain or isolate,changes,cells,method,result
Cc1cc2cn[nH]c2cc1NC(=O)COc1ccc(Cl)cc1C(=O)c1cccc(C#N)c1,HXB2,RT-K103N P225H,HeLa + HELA CD4+,β-galactosidase,<0.01 µM
CC(C)C1=C2[C@H]3CC[C@@H]4[C@@]5(C)CC[C@H](OC(=O)[C@H]6C[C@@H](C(=O)O)C6(C)C)C(C)(C)[C@@H]5CC[C@@]4(C)[C@]3(C)CC[C@@]2(CCNC[C@H]2CCCNC2)CC1=O,92HT599,-,MT-2,p24 / ELISA,<1 µM
CC(C)=CCOc1cc(NC(=S)c2ccoc2C)ccc1Cl,4XAZT+Y181C (RT D67N K70R Y181C T215Y K219Q),RT-D67N K70R Y181C T215Y K219Q,CEM + CEM-SS,p24,0.2 µM
CC(C)C1=C2[C@H]3CC[C@@H]4[C@@]5(C)CC[C@H](OC(=O)[C@H]6C[C@@H](C(=O)O)C6(C)C)C(C)(C)[C@@H]5CC[C@@]4(C)[C@]3(C)CC[C@@]2(CC(=O)N[C@@H](CNC(=O)c2ccc(Cl)cc2)C(C)O)CC1=O,92HT599,-,MT-2,p24 / ELISA,<1 µM
Cc1cc2[nH]cnc2cc1NC(=O)COc1ccc(Cl)cc1C(=O)c1cc(F)cc(C(F)(F)F)c1,HXB2,RT-P236L,HeLa + HELA CD4+,β-galactosidase,<0.01 µM
N#CC1=CC2Nc3ccccc3C2N(c2ccc([N+](=O)[O-])cc2)C1=O,1617-1,-,HeLa,GFP / fluorescence,0.87 µM
CCCc1cc(=O)oc2c3c(c4c(c12)OC(C)(C)CC4)O[C@@H](C)[C@H](C)[C@@H]3O,NL4-3,RT-Y181C,CEM + CEM-SS,XTT,<0.06 µM
Cc1cccc(C(=O)NC(C)(C)C(=O)NC[C@H](O)[C@@]23CC[C@]4(C)[C@H](CC[C@@H]5[C@@]6(C)CC[C@H](OC(=O)[C@H]7C[C@@H](C(=O)O)C7(C)C)C(C)(C)[C@@H]6CC[C@]54C)C2=C(C(C)C)C(=O)C3)n1,92HT599,-,MT-2,p24 / ELISA,<1 µM
Cc1cc(C#N)cc(C(=O)c2cc(Cl)ccc2OCC(=O)Nc2ccc(S(N)(=O)=O)cc2C)c1,HXB2,RT-G190A,HeLa + HELA CD4+,β-galactosidase,<0.01 µM
CC(C)=CCOc1cc(NC(=S)c2ccsc2C)ccc1Cl,IIIB,-,AA5,cytopathic effect / XTT,0.009 µM
CC(C)C1=C2[C@H]3CC[C@@H]4[C@@]5(C)CC[C@H](OC(=O)[C@H]6C[C@@H](C(=O)O)C6(C)C)C(C)(C)[C@@H]5CC[C@@]4(C)[C@]3(C)CC[C@@]2([C@@H](O)CNCC2(N)COC2)CC1=O,92HT599,-,MT-2,p24 / ELISA,<1 µM
CCc1cc(C#N)cc(C(=O)c2cc(Cl)ccc2OCC(=O)Nc2ccc(S(N)(=O)=O)cc2C)c1,HXB2,RT-K103N,HeLa + HELA CD4+,β-galactosidase,<0.01 µM
O=C(O)c1cc(-n2cccc2)ccc1Cl,93BR020 X4R5 CLADE F,-,PBMC + MT-2,p24,4.72 µM
COc1ccccc1C(=O)Nc1ccc(Cl)c(C(=O)OC(C)C)c1,UC82-R (RT-Y181C),RT-Y181C,CEM + CEM-SS,cytopathic effect / XTT,14.2 µM
Cc1cc(S(N)(=O)=O)ccc1NC(=O)COc1ccc(Cl)cc1C(=O)c1cc(F)cc(C#N)c1,HXB2,RT-K103N P225H,HeLa + HELA CD4+,β-galactosidase,<0.01 µM
[2H]C([2H])(NCC[C@@]12CC[C@]3(C)[C@H](CC[C@@H]4[C@@]5(C)CC[C@H](OC(=O)[C@H]6C[C@@H](C(=O)O)C6(C)C)C(C)(C)[C@@H]5CC[C@]43C)C1=C(C(C)C)C(=O)C2)c1ccccc1,92HT599,-,MT-2,p24 / ELISA,<1 µM
Cc1cc(S(N)(=O)=O)ccc1NC(=O)COc1ccc(Cl)cc1C(=O)c1cccc(C#N)n1,HXB2,RT-K103N P225H,HeLa + HELA CD4+,β-galactosidase,<0.01 µM
CC(C)C1=C2[C@H]3CC[C@@H]4[C@@]5(C)CC[C@H](OC(=O)[C@H]6C[C@@H](C(=O)O)C6(C)C)C(C)(C)[C@@H]5CC[C@@]4(C)[C@]3(C)CC[C@@]2(CC(=O)NCc2ccc(Cl)cc2OCCN2CCS(=O)(=O)CC2)CC1=O,92HT599,-,MT-2,p24 / ELISA,<1 µM
CC(C)=CCOc1cc(NC(=S)c2ccoc2C)ccc1Cl,4XAZT+L100I,-,CEM + CEM-SS,cytopathic effect / XTT,0.2 µM
Cc1ccc(CNC[C@H](O)[C@@]23CC[C@]4(C)[C@H](CC[C@@H]5[C@@]6(C)CC[C@H](OC(=O)[C@H]7C[C@@H](C(=O)O)C7(C)C)C(C)(C)[C@@H]6CC[C@]54C)C2=C(C(C)C)C(=O)C3)cn1,92HT599,-,MT-2,p24 / ELISA,<1 µM
CC1CC(C)CN(S(=O)(=O)c2ccccc2[N+](=O)[O-])C1,6463-13,-,HeLa,GFP / fluorescence,1 µM
Cc1cc(C#N)cc(C(=O)c2cc(Cl)ccc2OCC(=O)Nc2ccc(OCCCN3CC=CC3)cc2C)c1,HXB2,RT-V106I Y181C,HeLa + HELA CD4+,β-galactosidase,0.011–0.1 µM